Results: publication PMC8694051 (Proceedings of the National Academy of Sciences of the …, 2021)
Residues, ends and D or L forms follow the SMILES beside them. *: point of attachment. AMC = Cc1cc(=O)oc2cc(N*)ccc12; Boc = CC(C)(C)OC(=O)*

The chains behind the UniProt entries cited, without tags or fusion partners. Residues count along the entry.
UniProt O15393, 106-492: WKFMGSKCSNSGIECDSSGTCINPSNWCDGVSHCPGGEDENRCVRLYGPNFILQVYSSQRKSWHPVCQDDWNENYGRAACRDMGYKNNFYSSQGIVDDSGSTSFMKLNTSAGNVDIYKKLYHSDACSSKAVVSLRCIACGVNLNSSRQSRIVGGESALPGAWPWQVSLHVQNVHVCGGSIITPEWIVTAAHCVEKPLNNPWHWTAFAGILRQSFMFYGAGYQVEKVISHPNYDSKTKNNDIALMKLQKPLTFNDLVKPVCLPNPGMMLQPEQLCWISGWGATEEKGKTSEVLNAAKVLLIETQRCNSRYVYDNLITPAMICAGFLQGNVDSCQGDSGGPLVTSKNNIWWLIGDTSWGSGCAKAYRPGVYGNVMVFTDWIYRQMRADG

The molecules below were run against T1, Recombinant human TMPRSS2 (Homo sapiens, UniProt O15393) (assay: biochemical). Details: not given.
In the case of `CC(=O)NC(CO)C(=O)NC(CCCCN)C(=O)NC(CC(C)C)C(=O)NC(CCCNC(=N)N)C(=O)c1nc2ccccc2s1` (stereo not shown) [Compound 3, Ac-SKLR-kbt], the IC50 is reported as 39 nM.

The molecules below were run against T1, Recombinant human TMPRSS2 (assay: not given). Details: not given.
`Cc1cc(=O)oc2cc(NC(=O)[C@H](CCCNC(=N)N)NC(=O)[C@H](C)NC(=O)[C@H](CCC(N)=O)NC(=O)OC(C)(C)C)ccc12` [Boc-QAR-AMC, reference compound] (Boc-Gln-Ala-Arg-{AMC}) gave a Km of 85.6 µM.

Same assay, conditions: read-out: TMPRSS2 IC50; full-length recombinant TMPRSS2 3 nM, Boc-QAR-AMC, 30-min preincubation
Work on `CC(=O)N[C@@H](Cc1c[nH]c2ccccc12)C(=O)N[C@@H](Cc1ccccc1)C(=O)N[C@@H](CCCNC(=N)N)C(=O)c1nc2ccccc2s1` [Compound 8, Ac-WFR-kbt] yielded an IC50 of 9.4 nM. `CC(=O)N[C@@H](CO)C(=O)N[C@@H](CCCCN)C(=O)N[C@@H](Cc1ccccc1)C(=O)N[C@@H](CCCNC(=N)N)C(=O)c1nccs1` [Compound 9, Ac-SKFR-kt] showed an IC50 of 7.9 nM. `CC(=O)N[C@@H](CCCCN)C(=O)N[C@@H](CCC(N)=O)C(=O)N[C@@H](Cc1ccccc1)C(=O)N[C@@H](CCCNC(=N)N)C(=O)c1nccs1` [Compound 10, Ac-KQFR-kt] showed an IC50 of 29 nM. For `CC(=O)N[C@@H](CO)C(=O)N[C@@H](CCC(N)=O)C(=O)N[C@@H](CC(C)C)C(=O)N[C@@H](CCCNC(=N)N)C(=O)c1nccs1` [Compound 11, Ac-SQLR-kt], the IC50 was 16 nM. `CC(=O)N[C@@H](Cc1ccccc1)C(=O)N[C@@H](CC(C)C)C(=O)N[C@@H](Cc1ccccc1)C(=O)N[C@@H](CCCNC(=N)N)C(=O)c1nc2ccccc2s1` [Compound 12, Ac-FLFR-kbt] gave an IC50 of 3 nM. Molecule `CC(=O)N[C@H](Cc1c[nH]c2ccccc12)C(=O)N[C@@H](Cc1ccccc1)C(=O)N[C@@H](CCCNC(=N)N)C(=O)c1nc2ccccc2s1` [Compound 13, Ac-dWFR-kbt] has an IC50 of 1.1 nM. For `N=C(N)NCCC[C@H](NC(=O)[C@H](Cc1ccccc1)NC(=O)[C@H](N)Cc1c[nH]c2ccccc12)C(=O)c1nc2ccccc2s1` [Compound 14, dWFR-kbt], the IC50 was 39 nM. Work on `CC(=O)N[C@@H](CC(C)C)C(=O)N[C@@H](CC(C)C)C(=O)N[C@@H](CCCNC(=N)N)C(=O)c1nccs1` [Compound 18, Ac-LLR-kt] yielded an IC50 of 54 nM. In the case of Cyclo(DMK)R-kbt [Compound 19], the IC50 is reported as 19 nM. Cyclo(allylGLY)R-kbt [Compound 21] was tested, and the IC50 was 197 nM. dWFR-kbt-CO2H [Compound 15] gave an IC50 of 42 nM.
